Test results taken from patent publication US20100166769.

Biological target: M-GFP fusion protein (SARS-CoV M protein fused with green fluorescent protein), SARS-CoV

SARS-CoV E (envelope) protein was tested, and the result was “binds”.
